A mixed list of measured activities; the numbers were collected in NIAID ChemDB.

Common to all: host cell toxicity; cells: HepG2; read-out: CC50

Neighbouring rows are from separate reports. Two numbers with a dash give a range or band. An empty or dashed field is not shown. CCn is the concentration with n% toxicity to the cells.

smiles | read by | value
Cc1cc(NC(=O)c2c(C3CC3)c(C(=O)C(=O)NC3(C)CCC(O)CC3)n(C)c2C)ccc1F | MTT | >30 µM
COc1ccc(Oc2ccc3c(NCCCNCc4cc(F)ccc4OC)ccnc3c2)cc1 | fluorescence | 7 µM
CCOC(=O)CCCCCOc1cccc(CN(C(=O)c2ccc(-c3cnc(OC)nc3OC)cc2)C(C)C)c1 |  | >20 µM
Cc1cc(NC(=O)c2c(C)c(C(=O)C(=O)Nc3ccccc3N3CCOCC3)n(C)c2C)ccc1F | MTT | 5–30 µM
CN(C)c1cccc(Oc2ccc3c(NCCCNCc4ccco4)ccnc3c2)c1 | fluorescence | 16 µM
CCOC(=O)CCCCCOc1cccc(CN(C(=O)c2ccc(-c3cccc(OCC(C)C)c3)cc2)C(C)C)c1 |  | >20 µM
COc1ccc(F)cc1CNCCCNc1ccnc2cc(Cc3cccc(C(F)(F)F)c3)ccc12 | fluorescence | 0.44 µM
Cc1cc(NC(=O)c2c(C)c(C(=O)C(=O)NC3CCC(O)CC3)n(C)c2-c2nccs2)ccc1F | MTT | >30 µM
CC(C)N(Cc1cccc(OCCCCCC(=O)OC(=O)O)c1)C(=O)c1ccc(-c2cccc(Oc3ccccc3)c2)cc1 |  | <13.5 µM
Cc1c(C(=O)Nc2ccc(F)c(C#N)c2)c(C)n(C)c1C(=O)C(=O)Nc1cccc(B(O)O)c1 | MTT | >30 µM
CC(C)CCc1ccc2c(NCCCNCc3ccco3)ccnc2c1 | fluorescence | 11.24 µM
CC(C)N(Cc1cccc(OCCCCCC(=O)OC(=O)O)c1)C(=O)c1ccc(-c2ccncc2)cc1 |  | >20 µM
COc1ccc(F)cc1CNCCCNc1ccnc2cc(-c3ccccc3)ccc12 | fluorescence | 2.96 µM
CNC(=O)CCCn1c(NC(C)C)nc2c(c1=O)C[C@@H](C)N(C(=O)c1ccc(Cl)c(C(F)(F)F)c1)C2 | luminescence | 42.9 µM
CCOC(=O)CCCCCOc1cccc(CN(C(=O)c2ccc(-c3ccco3)cc2)C(C)C)c1 |  | >20 µM
Cc1cc(NC(=O)c2c(C)c(C(=O)C(=O)NC3(C)CCN(CC(=O)O)CC3)n(C)c2C)ccc1F | MTT | >30 µM
CCCN(Cc1ccccc1OCC(=O)OCC)C(=O)c1ccc(-c2ccc3c(c2)OCO3)cc1 |  | >20 µM
COc1ccc(F)cc1CNCCCNc1ccnc2cc(C3CCCCC3)ccc12 | fluorescence | 2.29 µM
CNC(=O)CCCn1c(NC(C)C)nc2c(c1=O)C[C@@H](C)N(C(=O)c1ccc(Br)c(C(F)(F)F)c1)C2 | luminescence | 30 µM
C=CCC1=CCCc2cc(OC)c(OC)cc21 |  | >20 µM
CNC(=O)CCCCn1c(NC(C)C)nc2c(c1=O)C[C@@H](C)N(C(=O)c1ccc(Cl)c(C(F)(F)F)c1)C2 | luminescence | >50 µM
COC(=O)CCCC1=NCCc2cc(OC)c(OC)cc21 |  | >20 µM
COc1cccc(CNCCCNc2ccnc3cc(Oc4cccc(N(C)C)c4)ccc23)c1O | fluorescence | 7.3 µM
CC(C)N(Cc1cccc(OCCCCCC(=O)OC(=O)O)c1)C(=O)c1ccc(-c2cccc(C(F)(F)F)c2)cc1 |  | >20 µM
Cc1cc(NC(=O)c2c(C)c(C(=O)C(=O)N[C@@H]3CCN[C@H](C(=O)O)C3)n(C)c2C)ccc1F | MTT | >30 µM
CNC(=O)[C@H]1CCC[C@H](n2c(NC(C)C)nc3c(c2=O)C[C@@H](C)N(C(=O)c2ccc(Cl)c(C(F)(F)F)c2)C3)C1 | luminescence | 29.6 µM
Cc1cc(NC(=O)c2c(C3CC3)c(C(=O)C(=O)NC3CCC(O)CC3)n(C)c2C)ccc1F | MTT | >30 µM
CNC(=O)c1c(C)c(-n2c(NC(C)C)nc3c(c2=O)C[C@@H](C)N(C(=O)c2ccc(Cl)c(C(F)(F)F)c2)C3)nn1C | luminescence | >50 µM

2 of the rows above, restated:

smiles | read by | value
CCOC(=O)CCCCCOc1cccc(CN(C(=O)c2ccc(-c3cccc(OCC(C)C)c3)cc2)C(C)C)c1 |  | >20 µM
CC(C)N(Cc1cccc(OCCCCCC(=O)OC(=O)O)c1)C(=O)c1ccc(-c2cccc(C(F)(F)F)c2)cc1 |  | >20 µM